For the assay, the target named is Human immunodeficiency virus type 1 integrase (Human immunodeficiency virus 1) (UniProt Q7ZJM1). Description: Selectivity ratio of IC50 for wild-type HIV1 integrase strand transfer activity over IC50 for recombinant wild-type HIV1 integrase 3'-processing activity.

SMILES strings stand for the structures. Where only a bound is given, the exact number is not on record here.

The record followed here is ChEMBL document CHEMBL1811908, “Design of HIV-1 integrase inhibitors targeting the catalytic domain as well as its interaction with LEDGF/p75: a scaffold hopping approach using salicylate and catechol groups” (Bioorg Med Chem, 2011).

For `O=C(NCc1ccc(F)cc1)c1cc(S(=O)(=O)N2CCCCC2)cc(O)c1O`, the Ratio IC50 is above 40.
